Laboratory results taken from patent US20240000885A1 (priority 2020, published 2024).

The chains behind the UniProt entries cited, without tags or fusion partners. Where a name states a change or a piece, a line headed by the entry shows the natural chain unless it says otherwise. Residues count along the entry.
UniProt Q9ULV0, 902-1848 limits assumed: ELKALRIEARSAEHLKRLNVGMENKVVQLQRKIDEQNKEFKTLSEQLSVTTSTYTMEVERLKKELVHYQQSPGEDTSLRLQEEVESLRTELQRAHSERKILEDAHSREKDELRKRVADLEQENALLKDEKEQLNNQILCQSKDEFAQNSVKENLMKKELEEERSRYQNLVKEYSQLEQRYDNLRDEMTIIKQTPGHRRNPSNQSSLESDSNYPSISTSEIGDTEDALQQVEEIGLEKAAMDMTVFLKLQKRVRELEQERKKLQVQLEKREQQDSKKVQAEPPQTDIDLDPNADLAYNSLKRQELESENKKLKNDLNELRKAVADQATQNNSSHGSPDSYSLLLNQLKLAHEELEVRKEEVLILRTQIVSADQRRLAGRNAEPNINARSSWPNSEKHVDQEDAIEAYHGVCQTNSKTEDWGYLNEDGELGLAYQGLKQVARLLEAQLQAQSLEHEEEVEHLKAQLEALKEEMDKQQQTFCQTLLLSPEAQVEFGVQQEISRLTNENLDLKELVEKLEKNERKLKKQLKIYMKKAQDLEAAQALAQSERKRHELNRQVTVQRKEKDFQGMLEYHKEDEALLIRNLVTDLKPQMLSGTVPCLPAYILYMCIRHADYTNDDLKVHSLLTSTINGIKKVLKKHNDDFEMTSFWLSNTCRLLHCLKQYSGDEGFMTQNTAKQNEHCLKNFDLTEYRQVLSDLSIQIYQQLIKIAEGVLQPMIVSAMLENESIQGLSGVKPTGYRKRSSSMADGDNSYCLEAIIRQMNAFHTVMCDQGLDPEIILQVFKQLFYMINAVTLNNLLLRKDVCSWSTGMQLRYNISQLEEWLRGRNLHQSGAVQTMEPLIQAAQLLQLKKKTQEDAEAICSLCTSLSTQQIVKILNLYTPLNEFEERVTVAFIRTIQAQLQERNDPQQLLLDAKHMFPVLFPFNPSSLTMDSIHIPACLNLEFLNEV

Legend:
[1] = target: SARS CoV2 M-GFP and mCherry-MYO5B+D 902 Tail in A549 cells (UniProt P0DTC5+Q9ULV0, G89R/L57V); conditions: for effect on the co-localization of SARS CoV2 with MYO5B+D: 1 μM
[2] = target: SARS CoV2 M-GFP and mCherry-MYO5B+D 902 Tail in MDCK cells (UniProt P0DTC5+Q9ULV0, G89R/L57V); conditions: for effect on the co-localization of SARS CoV2 with MYO5B+D: 1 μM
[3] = 10 pM to 1 pM (so in the source), 24 hours

CNC(=C[N+](=O)[O-])NCCSCc1csc(CN(C)C)n1 [Nizatidine] was tested, and the “lowest concentration causing loss of localization between SARS CoV2 M and MYO5B+D” value [1, 3] was 10 pM, the “effect on colocalization of SARS CoV2 M-GFP with 902 Tail” value ([1]; FIG. 21B, 24 hours) was “disrupts the colocalization” and the “lowest concentration causing loss of localization between SARS CoV2 M and MYO5B+D” value [2, 3] was 10 pM. The “effect on colocalization of SARS CoV2 M-GFP with 902 Tail” value ([2]; FIG. 21A, 24 hours) was “disrupts the colocalization”.

CN/C(=N/CCSCc1nc[nH]c1C)NC#N [Cimetidine] was tested, and the “effect on the co-localization of SARS CoV2 with MYO5B+D” value (“effect on the co-localization” for short) [1] was “no effect” and the “effect on the co-localization” value [2] was “no effect”.

NC(N)=Nc1nc(CSCCC(N)=NS(N)(=O)=O)cs1 [Famotidine] was tested, and the “effect on the co-localization” value [1] was “no effect” and the “effect on the co-localization” value [2] was “no effect”.
